This assay concerns B. pseudomallei 1026b.

Consider `CC(C)(O/N=C(\C(=O)N[C@@H]1C(=O)N2C(C(=O)[O-])=C(C[n+]3ccccc3)CS[C@H]12)c1csc(N)n1)C(=O)O` [Ceftazidime, ceftazidime], for which the “MIC for the parent strain” value was in the range of 1 to 2 µg/mL and the “wild-type MICs, average fold higher than the MICs for GC-072” value was 7.2 fold. For the compound `Cc1c(-c2cc(F)c(N)cc2F)ccn2c(=O)c(C(=O)O)cc(C3CC3)c12` [GC-072], the “MIC for the parent strain” value lay in the range of 0.125 to 0.25 µg/mL.

The record behind these values is article PMC6879241 (Antimicrobial Agents and Chemotherapy, 2019).
